Measured values from several laboratories, pooled; numbers as filed in NIAID ChemDB.

All rows: enzyme or target tests; organism: Hepatitis C virus

Blank or dashed fields: not listed here. Two numbers with a dash give a range or band. ICn: concentration for n% inhibition. Rows are shuffled and stem from different studies.

structure,protein,strain or isolate,read-out,read by,result
CC(=O)N[C@H](C(=O)N[C@H](C(=O)N1C[C@H](Oc2ccnc3ccccc23)C[C@H]1C(=O)NC1(C(=O)O)CC1)C(C)C)C1CCCCC1,NS3 protease,-,IC50,-,5 µM
C=Cc1ccc(C(NC(=O)[C@@H](NC(=O)OC(C)(C)C)C(C)(C)C)C(=O)Nc2ccc(C(=O)NS(=O)(=O)c3ccc(C(F)(F)F)cc3)cc2)cc1Oc1cc(OC)nc(-c2ccccc2)n1,Nonstructural protein 3/4A,GT1a,Ki,FRET,0.03 µM
COc1ccc(-c2cc(-c3cccc(Cl)c3)nc3cc(C(=O)O)nn23)cc1,RNA-dependent RNA polymerase,-,IC50,-,>10 µM
CC[C@H](NC(=O)[C@H](CC(C)C)NC(=O)[C@@H](NC(=O)[C@@H](NC(=O)[C@H](CC(=O)O)CC(=O)[C@H](CCC(=O)O)NC(C)=O)C(C)C)C(C)C)C(=O)C(=O)NC(C)COC,NS3 protease,-,Ki,-,<1 µM
O=C(O)c1cc2nc(-c3ccc(Cl)cc3)cc(-c3ccccc3OCc3ccccc3)n2n1,RNA-dependent RNA polymerase,-,IC50,-,1–10 µM
CC[C@H](NC(=O)[C@H](CC(C)C)NC(=O)[C@@H](NC(=O)[C@@H](NC(=O)c1cnccn1)C(C)C)C(C)C)C(=O)C(=O)N[C@@H](C)c1ccccc1,NS3 protease,-,Ki,-,1–100 µM
O=C1CC(=O)OC(CCc2ccc(N3CCCC3=O)cc2)(C2CCCC2)C1,Nonstructural protein 5B,-,IC50,-,1–10 µM
N#Cc1ccc(-c2cc(NS(=O)(=O)c3ccc(Cl)cc3)c(C(=O)O)s2)cc1,NS3 ATPase,-,IC50,-,<5 µM
C=CC1C[C@@]1(NC(=O)[C@@H]1C[C@@H](Oc2cc(-c3ccccc3)nc3cc(OC)ccc23)CN1C(=O)[C@@H](NC(=O)Oc1ccc(OC)cc1)C(C)(C)C)C(=O)NS(=O)(=O)C1(Cc2ccccc2)CC1,NS3/NS4A protease,BMS,IC50,-,0.05–0.5 µM
CC[C@@H](C=O)NC(=O)[C@@H]1C[C@@H](OCc2ccccc2)CN1C(=O)[C@@H](NC(=O)C1CCCC1c1ccccc1)C(C)C,NS3 protease,-,Ki,-,>100 µM
CN(C(=O)c1ccc(Cl)c(Cl)c1)c1cc(-c2ccccc2)sc1C(=O)O,NS3 ATPase,-,IC50,-,5–20 µM
C=CCCCc1ccc(S(=O)(=O)NC(=O)c2ccccc2NC(=O)C(NC(=O)OC(C)(C)C)c2ccc(C=C)c(Oc3cc(OC)nc(-c4ccccc4)n3)c2)cc1,Nonstructural protein 3/4A,GT1a,Ki,FRET,0.19 µM
CCn1nnnc1SC1=C(O)CC(CCc2ccc(OC)cc2)(C2CCCC2)OC1=O,Nonstructural protein 5B,-,IC50,-,<1 µM
CC[C@@H](C=O)NC(=O)[C@@H]1C[C@@H](OCc2ccccc2)CN1C(=O)[C@@H](NC(=O)[C@H](Cc1ccc([N+](=O)[O-])cc1)NC(=O)c1cnccn1)C(C)C,NS3 protease,-,Ki,-,1–100 µM
C=C[C@H]1C[C@@]1(NC(=O)[C@@H]1C[C@@H](Oc2cc(-c3ccccc3)nc3cc(OC)ccc23)CN1C(=O)[C@@H](NC(=O)OC(C)(C)C)C(C)(C)C)C(=O)NS(=O)(=O)C1(Cc2cc(C)on2)CC1,NS3/NS4A protease,BMS,IC50,-,<0.05 µM
COc1ccc(-c2cc(N(C(=O)C3CCC(C)CC3)C(C)C)c(C(=O)O)s2)cc1,NS3 ATPase,-,IC50,-,<5 µM
CC(=O)N[C@H](C(=O)N[C@H](C(=O)N1C[C@H](Oc2cccc(-c3cccc([N+](=O)[O-])c3)c2)C[C@H]1C(=O)NC1(C(=O)O)CC1)C(C)C)C1CCCCC1,NS3 protease,-,IC50,-,6 µM
CC[C@@H](C=O)NC(=O)[C@@H]1C[C@@H](OCc2ccc(C(F)(F)F)cc2)CN1C(=O)[C@@H](NC(=O)[C@@H](NC(=O)c1cnccn1)C(C)C)C(C)C,NS3 protease,-,Ki,-,1–100 µM
Cc1ccc(CN(C(=O)C(C)C)c2cc(-c3ccccc3)sc2C(=O)O)cc1,NS3 ATPase,-,IC50,-,5–20 µM
C=Cc1ccc(C(NC(=O)NC(C)(C)C)C(=O)Nc2cccc(C(=O)NS(=O)(=O)c3ccc(C(F)(F)F)cc3)c2)cc1Oc1cc(OC)nc(-c2ccccc2)n1,Nonstructural protein 3/4A,GT1a,Ki,FRET,0.14 µM
COc1ccc2c(O[C@@H]3C[C@@H](C(=O)N[C@@]4(C(=O)NS(=O)(=O)C5(Cc6ccccc6)CC5)CC4C4CC4)N(C(=O)[C@@H](NC(=O)OC(C)(C)C)C(C)(C)C)C3)cc(-c3ccccc3)nc2c1,NS3/NS4A protease,BMS,IC50,-,0.05–0.5 µM
C=CCN(C(=O)CCCCC)c1cc(-c2ccccc2)sc1C(=O)O,NS3 ATPase,-,IC50,-,5–20 µM
CC[C@@H]1C[C@]1(NC(=O)[C@@H]1C[C@@H](Oc2cc(-c3csc(NC(C)C)n3)nc3c(Cl)c(OCCN4CCOCC4)ccc23)CN1C(=O)[C@@H](NC(=O)OC1C[C@@H]2C[C@@H]2C1)C(C)(C)C)C(=O)O,Nonstructural protein 3 protease,Con1 (gt 1b),Ki,fluorescence,0.00041 µM
COc1ccccc1-c1ccc(-c2nc3cc(C(=O)O)[nH]n3c(=O)c2C2CCCCC2)cc1,RNA-dependent RNA polymerase,-,IC50,-,1–10 µM
Cc1cc(Cl)ccc1C(=O)N(c1cc(-c2ccccc2)sc1C(=O)O)C(C)C,NS3 ATPase,-,IC50,-,<5 µM
O=C(O)c1cc2nc(-c3cccc(F)c3)c(C3CCCCC3)c(=O)n2[nH]1,RNA-dependent RNA polymerase,-,IC50,-,<1 µM
Cc1cc(SC2=C(O)CC(CCC3CCCC3)(C3CCCC3)OC2=O)c(C(C)(C)C)cc1CO,Nonstructural protein 5B,-,IC50,-,10–50 µM
COc1ccc2c(O[C@@H]3C[C@@H](C(=O)NC4(C(=O)NS(=O)(=O)C5(C6=CCCCC6)CC5)CC4)N(C(=O)[C@@H](NC(=O)OC(C)(C)C)C(C)(C)C)C3)cc(-c3ccccc3)nc2c1,NS3/NS4A protease,BMS,IC50,-,0.05–0.5 µM
CC(=O)N(Cc1cccc(Cl)c1)c1cc(-c2ccccc2)sc1C(=O)O,NS3 ATPase,-,IC50,-,>20 µM
COc1cc(F)cc(-c2cc(-c3cccc(Cl)c3)nc3cc(C(=O)O)nn23)c1,RNA-dependent RNA polymerase,-,IC50,-,1–10 µM
CC[C@@H](C=O)NC(=O)[C@@H]1C[C@@H](OCc2ccccc2)CN1C(=O)[C@@H](NC(=O)Cc1ccc(NC(=O)c2ccccc2)cc1)C(C)C,NS3 protease,-,Ki,-,>100 µM
C=Cc1ccc(C(NC(=O)OC2CCCC2)C(=O)Nc2ccc(C(=O)NS(=O)(=O)c3ccc(C(F)(F)F)cc3)cc2)cc1Oc1cc(OC)nc(-c2ccccc2)n1,Nonstructural protein 3/4A,GT1a,Ki,FRET,0.055 µM
O=C(O)c1sc(-c2ccccc2)cc1N(C(=O)c1ccc(Cl)cc1Cl)C1CCNC1,NS3 ATPase,-,IC50,-,5–20 µM
CC(=O)N[C@H](C(=O)N[C@H](C(=O)N1C[C@H](Oc2cccc(Br)c2)C[C@H]1C(=O)NC1(C(=O)O)CC1)C(C)C)C1CCCCC1,NS3 protease,-,IC50,-,50 µM
C=CC1CC1(NC(=O)[C@@H]1C[C@@H](Oc2cc(-c3ccccc3)nc3cc(OC)ccc23)CN1C(=O)[C@@H](NC(=O)OC(C)(C)C)C(C)(C)C)C(=O)NS(=O)(=O)C1(Br)CC1,NS3/NS4A protease,BMS,IC50,-,<0.05 µM
O=C1CC(=O)OC(CCc2cccc(Cl)c2)(C2CCCC2)C1,Nonstructural protein 5B,-,IC50,-,1–10 µM
C=Cc1ccc(C(NC(=O)OC(C)(C)C)C(=O)Nc2cccc(C(=O)NS(=O)(=O)c3ccc(C(F)(F)F)cc3)c2)cc1Oc1cc(OC)nc(-c2ccccc2)n1,Nonstructural protein 3/4A,GT1a,Ki,FRET,0.058 µM
CC[C@@H](C=O)NC(=O)[C@@H]1C[C@@H](OCc2ccccc2)CN1C(=O)[C@@H](NC(=O)c1nccc2ccccc12)C(C)C,NS3 protease,-,Ki,-,1–100 µM
C=Cc1ccc(C(NC(C)=O)C(=O)Nc2cccc(C(=O)NS(=O)(=O)c3ccc(C(F)(F)F)cc3)c2)cc1Oc1cc(OC)nc(-c2ccccc2)n1,Nonstructural protein 3/4A,GT1a,Ki,FRET,0.7 µM
CC[C@@H](C=O)NC(=O)[C@@H]1C[C@@H](OCc2ccc3c(c2)OCOC3)CN1C(=O)[C@@H](NC(=O)[C@@H](NC(=O)c1cnccn1)C(C)C)C(C)C,NS3 protease,-,Ki,-,1–100 µM

Again, the opening 2 rows:

structure,protein,strain or isolate,read-out,read by,result
CC(=O)N[C@H](C(=O)N[C@H](C(=O)N1C[C@H](Oc2ccnc3ccccc23)C[C@H]1C(=O)NC1(C(=O)O)CC1)C(C)C)C1CCCCC1,NS3 protease,-,IC50,-,5 µM
C=Cc1ccc(C(NC(=O)[C@@H](NC(=O)OC(C)(C)C)C(C)(C)C)C(=O)Nc2ccc(C(=O)NS(=O)(=O)c3ccc(C(F)(F)F)cc3)cc2)cc1Oc1cc(OC)nc(-c2ccccc2)n1,Nonstructural protein 3/4A,GT1a,Ki,FRET,0.03 µM